Data as given in PMC3315491.

Molecular target: T1, EspR (UniProt P9WJB7)
T1 sequence (looked up, limits assumed): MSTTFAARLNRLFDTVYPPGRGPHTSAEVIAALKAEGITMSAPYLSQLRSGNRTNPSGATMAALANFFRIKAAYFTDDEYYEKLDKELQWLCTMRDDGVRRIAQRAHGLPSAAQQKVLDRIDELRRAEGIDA
Assay: DNase I footprinting
Details: 10 µM EspR, regions I and II protected; recombinant protein; label: 6-FAM 5' (forward strand); probe letters rebuilt from the primers and the genome

GATAACCTGTGAAATCCGTTCGTCGTGTGGACACATCACCGAATCGGTTGGACCCTCATCGGGGGGGTCTTCGTTGACCCCTCACAACGTCAGCACCCAATCCGCTCAGGTTTGCACTTGGTTGTGGACACAACTGTCGCTACCATGATCAGCAAATACATACAGATAACCGTTTGCTCTTGGAGCCCGGTGGAGGTCACATCGATGAGCACGACGTTCGCTGCCCGCCTGAACCGCCTGTTCGACACGGTTTATCCGCCCGGACGCGGGCCACATACCTCCGCGGAGGTGATCGCGGCGCTCAAGGCAGAGGGCATCACGATGTCGGCTCCCTACCTATCACAGCTACGCTCAGGAAACC (double strand) [espR promoter footprint probe]
binding result: binds

Construct, isoform or probe ends are uncertain for at least one entry. Where a protein sequence is shown, tags need not be part of it.
